Literature values as cited in US9358281B2, “Methods, agents and peptides for inducing an innate immune response in HIV vaccination” (New York University, priority 2009, dated 2016).

Target: Cyclophilin A (Homo sapiens)
Details: Reimer et al., 1997; cited from earlier work

second peptide: SEQ ID NO: 16 peptide with Gly9 replaced with Ala and Met16 changed to norleucine (Nle) (DRVHPVHAAPIAPGQMREPRGSDIA; Met16 to norleucine; Human Immunodeficiency Virus)
activity (interaction with Cyclophilin A): also has activity
